# Test results as given in patent publication US11608328B2, “Chemical probes to identify anti-mycobacterial MmpL3 inhibitors” (Creighton University, priority 2019, dated 2023).
# Chains of the proteins cited; added tags and fusions are not shown.
# UniProt P9WJV5, whole entry: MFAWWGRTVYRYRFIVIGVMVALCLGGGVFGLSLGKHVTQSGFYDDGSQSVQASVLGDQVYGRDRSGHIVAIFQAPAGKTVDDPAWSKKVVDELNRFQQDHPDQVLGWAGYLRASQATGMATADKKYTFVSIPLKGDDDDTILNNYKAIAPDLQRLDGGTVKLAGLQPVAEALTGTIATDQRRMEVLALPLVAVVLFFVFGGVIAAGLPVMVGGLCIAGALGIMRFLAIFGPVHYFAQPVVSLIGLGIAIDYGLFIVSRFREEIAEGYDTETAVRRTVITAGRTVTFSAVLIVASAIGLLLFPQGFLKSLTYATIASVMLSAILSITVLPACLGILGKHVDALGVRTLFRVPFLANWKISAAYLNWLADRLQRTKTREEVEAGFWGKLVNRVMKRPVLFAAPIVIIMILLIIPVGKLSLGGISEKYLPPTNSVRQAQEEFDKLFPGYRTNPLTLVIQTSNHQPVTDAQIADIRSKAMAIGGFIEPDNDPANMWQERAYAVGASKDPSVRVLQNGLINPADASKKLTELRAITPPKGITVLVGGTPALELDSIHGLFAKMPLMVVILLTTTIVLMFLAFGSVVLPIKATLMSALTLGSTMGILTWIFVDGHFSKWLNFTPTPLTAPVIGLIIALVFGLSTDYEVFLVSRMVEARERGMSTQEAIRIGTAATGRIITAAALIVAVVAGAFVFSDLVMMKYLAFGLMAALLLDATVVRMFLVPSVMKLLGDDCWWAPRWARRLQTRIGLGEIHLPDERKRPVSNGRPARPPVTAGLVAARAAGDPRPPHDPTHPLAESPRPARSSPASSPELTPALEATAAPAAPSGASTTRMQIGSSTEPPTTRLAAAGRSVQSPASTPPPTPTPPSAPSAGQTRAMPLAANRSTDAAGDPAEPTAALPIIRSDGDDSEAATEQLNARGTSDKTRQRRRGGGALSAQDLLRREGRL
# Like-named read-outs stand apart in the source and are kept apart here. Marks after values point to notes of the source that are not given here.
# What was measured:
# [1] = test system: MsmgΔmmpL3 expressing mmpL3tb V684G; assay: Drug-susceptibility testing (MIC, resazurin blue test); type: cell-based, Mycobacterium smegmatis
# [2] = test system: MsmgΔmmpL3 expressing mmpL3tb F644C; assay: as above; type: cell-based, Mycobacterium smegmatis; details: Tables 1A-1B, superscript a = 8-fold or more increase over WT, b = 4-fold
# [3] = test system: MsmgΔmmpL3 expressing mmpL3tb G253E; assay: as above; type: cell-based, Mycobacterium smegmatis
# [4] = test system: MsmgΔmmpL3 expressing mmpL3tb L189R; assay: as above; type: cell-based, Mycobacterium smegmatis
# [5] = test system: MsmgΔmmpL3 expressing mmpL3tb L567P; assay: as above; type: cell-based, Mycobacterium smegmatis; details: Tables 1A-1B, superscript a = 8-fold or more increase over WT, b = 4-fold
# [6] = test system: MsmgΔmmpL3 expressing mmpL3tb Q372R; assay: as above; type: cell-based, Mycobacterium smegmatis; details: Tables 1A-1B, superscript a = 8-fold or more increase over WT, b = 4-fold
# [7] = test system: MsmgΔmmpL3 expressing mmpL3tb S288T; assay: as above; type: cell-based, Mycobacterium smegmatis; details: Tables 1A-1B, superscript a = 8-fold or more increase over WT, b = 4-fold
# [8] = test system: MsmgΔmmpL3 expressing mmpL3tb S309C; assay: as above; type: cell-based, Mycobacterium smegmatis; details: Tables 1A-1B; mutant S309C; superscript a = 8-fold or more increase over WT, b = 4-fold
# [9] = test system: MsmgΔmmpL3 expressing mmpL3tb S591I; assay: as above; type: cell-based, Mycobacterium smegmatis
# [10] = test system: MsmgΔmmpL3 expressing mmpL3tb T311I; assay: as above; type: cell-based, Mycobacterium smegmatis; details: Tables 1A-1B, superscript a = 8-fold or more increase over WT, b = 4-fold
# [11] = test system: MsmgΔmmpL3 expressing mmpL3tb V684A; assay: as above; type: cell-based, Mycobacterium smegmatis
# [12] = test system: MsmgΔmmpL3 expressing mmpL3tb F644C/I/L; assay: as above; details: Table 2; mutant F644C/I/L
# [13] = test system: MsmgΔmmpL3 expressing mmpL3tb F644Y; assay: as above; details: Table 2; mutant F644Y
# [14] = test system: MsmgΔmmpL3 expressing mmpL3tb G253R; assay: as above; details: Table 2; mutant G253R
# [15] = test system: MsmgΔmmpL3 expressing mmpL3tb G253W; assay: as above; details: Table 2; mutant G253W
# [16] = test system: MsmgΔmmpL3 expressing mmpL3tb S591G; assay: as above; details: Table 2; mutant S591G
# [17] = test system: MsmgΔmmpL3 expressing mmpL3tb S591W; assay: as above; details: Table 2; mutant S591W
# [18] = test system: MsmgΔmmpL3 expressing mmpL3tb V684I; assay: as above; details: Table 2; mutant V684I
# [19] = test system: MsmgΔmmpL3 expressing mmpL3tb V684W; assay: as above; details: Table 2; mutant V684W
# Mtb = assay: MIC values against Mtb used for the PMF assays; type: cell-based, Mycobacterium tuberculosis; details: FIG. 8 legend
# purified MmpL3tb protein = purified MmpL3tb protein (Mycobacterium tuberculosis, UniProt P9WJV5); assay: Surface Plasmon Resonance binding to immobilized MmpL3tb
# purified MmpL3-GFP = purified MmpL3-GFP (Mycobacterium tuberculosis, UniProt P9WJV5); assay: Flow cytometry-based competition binding assay on purified MmpL3-GFP (displacement of Compound 2); details: 2 μM Compound 2 with increasing inhibitor concentrations
# [20] = test system: transfer of mycolic acids onto their cell envelope acceptors in Mtb H37Rv; assay: Metabolic labeling with [1,2-14C]acetate, lipid and mycolic acid analysis in Mtb; details: 24 hours, 0.5× and 2×MIC
# [21] = test system: MsmgΔmmpL3 expressing wild-type mmpL3tb; details: MmpL3 WT
# [22] = test system: MsmgΔmmpL3 expressing mmpL3tb LI89A; details: Table 2; mutant LI89A
# MmpL3tb (MmpL3^WT) = MmpL3tb (MmpL3^WT) (Mycobacterium tuberculosis, UniProt P9WJV5); details: 50, 100 and 200 μM
# [23] = test system: transfer of mycolic acids onto their cell envelope acceptors in MsmgΔmmpL3/pMVGH1-mmpL3tb; details: 3 hours
# [24] = Table 2, mutant V684G (parent mutant)
# [25] = Tables 1A-1B, […], superscript a = 8-fold or more increase over WT, b = 4-fold
compound,measurement,setting,value
Cc1c(CN2CCN(C)CC2)cc(-c2ccc(Cl)cc2)n1-c1ccc(Cl)cc1 [BM212],MIC,[1]; [24],4 µg/mL
same,MIC,[1]; [25],12.5 µg/mL
CC1(C)CCC(NC(=O)c2cc3c(F)cc(F)cc3[nH]2)CC1,MIC,[2],0.03 µg/mL
same,MIC,"[3]; Table 2, mutant G253E (parent mutant)",0.5 µg/mL
same,MIC,[3]; [25],0.4^a μg/mL
same,MIC,"[4]; Table 2, mutant L189R (parent mutant)",0.5 µg/mL
same,MIC,[4]; [25],0.25^b μg/mL
same,MIC,[5],1^a μg/mL
same,MIC,[6],0.5^a μg/mL
same,MIC,[7],0.64^a μg/mL
same,MIC,[8],0.5^a μg/mL
same,MIC,"[9]; Table 2, mutant S591I (parent mutant)",0.12-0.25^ μg/mL
same,MIC,[9]; [25],0.5^a μg/mL
same,MIC,[10],0.125 µg/mL
same,MIC,"[11]; Table 2, mutant V684A (parent mutant)",0.25 µg/mL
same,MIC,[11]; [25],0.5^a μg/mL
same,MIC,[1]; [24],0.12-0.25^ μg/mL
same,MIC,[1]; [25],0.25^b μg/mL
same,MIC,[12],0.03-0.06^ μg/mL
same,MIC,[13],0.03 µg/mL
same,MIC,[14],0.12-0.25^c μg/mL
same,MIC,[15],0.5 µg/mL
same,MIC,[16],0.06-0.12^c μg/mL
same,MIC,[17],0.06-0.12^c μg/mL
same,MIC,[18],0.06^c μg/mL
same,MIC,[19],0.5 µg/mL
same,MIC values,Mtb,0.05 µM
same,ka2,purified MmpL3tb protein; SPR global fit,0.005 1/RU*s
same,kd1,purified MmpL3tb protein; SPR global fit,0.06 s⁻¹
same,kd2,purified MmpL3tb protein; SPR global fit,0.0002 s⁻¹
same,ka1,"purified MmpL3tb protein; SPR global fit, HEPES-TX buffer with 5% DMSO",426.1 M⁻¹ s⁻¹
same,Model (best-fit kinetic model),purified MmpL3tb protein; SPR sensorgrams fit globally,Two-state reaction
same,Kd,"purified MmpL3tb protein; read-out: KD1, equilibrium dissociation constant calculated from the rate constants",5.4 µM
same,displacement of Compound 2 from purified MmpL3tb,purified MmpL3-GFP,clear concentration-dependent displacement
same,inhibition of transfer of mycolic acids to cell envelope acceptors,[20],displayed the same expected property of MmpL3 inhibitors
same,MIC,[21]; Table 2,0.06 µg/mL
same,MIC,[21]; Tables 1A-1B,0.06 µg/mL
same,MIC,[22],0.12^c μg/mL
same,BLI binding signal,MmpL3tb (MmpL3^WT),No signal was detected
same,inhibition of transfer of mycolic acids to cell envelope acceptors,[23],actually targeted MmpL3tb in the Msmg recombinant system
